Here are results for 28 compounds from PubChem BioAssay AID1259415 (National Center for Advancing Translational Sciences (NCATS), 2018).

Only a part is listed here, and it is no random draw. Results filed as inconclusive are left out. Activity calls are given as the source filed them. Cut-off read from the data, not from the text of the source: active = activity change below about -60%; inconclusive = no clear call, values can overlap the other calls; inactive = above about -39%.
% is set by controls: 0 for no effect and ±100 for the full control effect.

The nature of this assay: qHTS Assay for inhibitors of the human cytomegalovirus (HCMV). The conditions noted are these: HFF cells, HCMV-luciferase reporter, 72 h; at 57.5 µM; stronger effect = lower value. An excerpt:
NCGC Assay Overview: Infection with human cytomegalovirus (HCMV) continues to pose significant threats for pregnant women and immunocompromised hosts. HCMV causes serious morbidity and mortality in transplant recipients, and congenital HCMV is the leading infectious cause of mental retardation and deafness in children. In the 1990s, the annual costs associated with the disease burden of congenital CMV were estimated at around $2 billion. A HCMV vaccine is not available yet and HCMV therapies result in intolerable side effects and emergence of drug resistant viruses. […] Towards this goal we have developed and characterized a luciferase HCMV reporter that was initially used in 96 well plates and then optimized to 1536-well plates for utilization in screening of the MLSMR collection, the NGCG diversity collection and the NCGC Pharmaceutical Collection of approved and investigational drugs.
NCGC Assay Protocol Summary:
This is a cell-based assay for HCMV inhibition in HFFs cells. The screening used 2 compound doses and the HCMV-luciferase at MOI of 1 PFU/cell. Cells were treated and infected with HCMV. At 72 h post infection cell lysates were collected and luciferase activity was determined using the Glomax-Multi + Detection System (Promega, Madison, WI). Data were normalized to the controls for basal activity (buffer only) and known HCMV inhibitors Salinmoycin.
1536-well assay protocol for the assay:
(1) Add 3 ul CMV/HFF cell culture. 1000 cells/well in DMEM nirmal media.
(2) Incubate 16 hr at 37C.
(3) Add 23 nl control compound, 10uM of Salinomycin.
(4) Add 23 nl compounds in DMSO solution.
(5) Add 3 ul CMV suspension. Final 1 puf/ul, Virus stock 2000pfu/ul
(6) Incubate 72 hrs at 37C.
(7) Add 4 ul OneGlo Luc Reagent.
(8) Incubate 5 min at room temperature.
Background: In qHTS, concentration-response curves come from the screen itself.
Regarding `O=C(OC1CN2CCC1CC2)c1ccccc1` (stereo not drawn), the activity change, negative = inhibition is inactive: -33.3%.

For the compound `CCC(=O)N1C2C3N(C(=O)CC)C1C1N(C(=O)CC)C(C(N1C(=O)CC)N3C(=O)CC)N2C(=O)CC`, the activity change, negative = inhibition is inactive: -11.4%.

Consider `COC(=O)c1cc2c(s1)N=C(c1ccccc1)N(C)P2(=O)N1CCOCC1` (stereo not drawn), for which the activity change, negative = inhibition is inactive: -24.9%.

Turning to `Cc1ccc(OP(=O)(Nc2ccccn2)Oc2ccc(C)cc2)cc1`, the activity change, negative = inhibition is active: -78.1%.

Take `Cc1ccccc1OP(=O)(Nc1ccccn1)Oc1ccccc1C`: the activity change, negative = inhibition is inactive: -33%.

Turning to `CC(NC(=O)COC(=O)C(O)(c1ccccc1)c1ccccc1)c1ccccc1` (stereo not drawn), the activity change, negative = inhibition is inactive: 1.11%.

Take `CN(C)C(=O)Oc1noc2ccccc12`: the activity change, negative = inhibition is inactive: -21.8%.

As to `O=c1c2cc([N+](=O)[O-])ccc2[nH]c2c([N+](=O)[O-])cc([N+](=O)[O-])cc12`, the activity change, negative = inhibition was inactive: -22.9%.

With `c1ccc(-c2nn[nH]n2)c(-c2nn[nH]n2)c1`, the activity change, negative = inhibition was inactive: -22.9%.

On to `Cc1ccc(NP(=O)(Oc2cccc(C)c2)Oc2cccc(C)c2)nc1`, for which the activity change, negative = inhibition was inactive: -14.6%.

Turning to `CCNC(=S)/N=C(\N)N[N+](=O)[O-]`, the activity change, negative = inhibition is inactive: -0.597%.

Regarding `O=C(NC1CCS(=O)(=O)C1)NP(=S)(Oc1ccccc1)Oc1ccccc1` (stereo not drawn), the activity change, negative = inhibition was inactive: -4.15%.

Regarding `O=P1(N(CCCl)CCCl)OCCC2CCCCN21` (stereo not drawn), the activity change, negative = inhibition is inactive: -19.6%.

In the case of `Cc1ccccc1CN(C)C(=O)COC(=O)C(O)(c1ccccc1)c1ccccc1`, the activity change, negative = inhibition is inactive: 47.1%.

As for `C[C@@H]1C=CCP(=O)(Oc2ccccc2)O1` (stereo partly drawn), the activity change, negative = inhibition is inactive: -21.6%.

For `C[C@H]1OP(=O)(Oc2ccccc2)C[C@@H]2O[C@@H]21` (stereo partly drawn), the activity change, negative = inhibition was inactive: 1.74%.

`CC(=O)c1ccc(N2CC2c2ccncc2)cc1` (stereo not drawn): the activity change, negative = inhibition was inactive: 28%.

As to `COC(=O)C1(C)COP(=O)(NCc2ccccc2)OC1` (stereo not drawn), the activity change, negative = inhibition is inactive: -0.501%.

Consider `CC(=O)Nc1ccc([As](=O)(O)O)c(O)c1`, for which the activity change, negative = inhibition was inactive: 3.1%.

With `CC(=O)Nc1ccc(Oc2c([N+](=O)[O-])cc([N+](=O)[O-])cc2[N+](=O)[O-])cc1`, the activity change, negative = inhibition was inactive: 16.9%.

For the compound `O=P1(Nc2nc3ccc(Cl)cc3s2)COc2ccccc2O1` (stereo not drawn), the activity change, negative = inhibition was inactive: 88.3%.

For the compound `CCOc1ccc(C2=NCC(CBr)S2)cc1` (stereo not drawn), the activity change, negative = inhibition was inactive: 4.35%.

Consider `CC(C)(C)C(=O)NC(Sc1ccccc1)C(Cl)(Cl)Cl` (stereo not drawn), for which the activity change, negative = inhibition was inactive: -14.3%.

In the case of `CCc1cc(O)c([N+](=O)[O-])c(C)c1[N+](=O)[O-]`, the activity change, negative = inhibition was inactive: 15.3%.

On to `CC(C)C(=O)NC(Sc1ccccc1)C(Cl)(Cl)Cl` (stereo not drawn), for which the activity change, negative = inhibition was inactive: 18.6%.

On to `O=P(Nc1nccs1)(c1ccccc1)c1ccccc1`, for which the activity change, negative = inhibition was inactive: 11.8%.

Take `c1nnnn1CCn1cnnn1`: the activity change, negative = inhibition is inactive: -7.89%.

`O=C(OC1CN2CCC1CC2)c1cccc(Cl)c1` (stereo not drawn): the activity change, negative = inhibition was inactive: 19.9%.
